Results deposited as PubChem BioAssay AID504761 (Drosophila RNAi Screening Center, 2011).
The screen tested about 22,000 reagents; below is a random part of those that have a named target and a result. Over the whole deposit, 116 (0.52%) are marked active. 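Calls depend on retest data that are not deposited; infection was ranked per plate without normalising between plates; the unit of the infection score is not given.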 Raw values vary from plate to plate and are shown uncorrected. The numbers tell different reagents against one gene apart. Not all columns of the deposit are shown. No sequences are given here. The record does not give: the amount of reagent, the time to read-out.

Test: 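Genome-wide fly cell screen for genes dengue virus requires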 (primary screen)
Cells: D.Mel-2 cells from Drosophila
Reagents: long dsRNA against Drosophila genes
Conditions: infection with dengue virus type 2; dose and infection time not stated
Detection: 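Cells stained for dengue envelope protein and imaged; percent of infected cells per well on duplicate plates, ranked by infection, with stained nuclei counted for cell number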
Direction: infection score: higher = more virus-infected cells; cell count: higher = more cells in the well
Call rule: 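Very low infection ranking in both replicate wells (chance probability at most 0.065), then a retest showing infection dropped 1.5-fold or more at p below 0.05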
Calls: active = confirmed: knock-down lowers infection; inactive = not picked or not confirmed

The opening 2 entries, to show the layout:
tsg (GeneID 32160) #1 — infection score, replicate 1 = 1.6; cell count, replicate 1 = 6013; outcome = inactive
tsg (GeneID 32160) #2 — infection score, replicate 1 = 1.1; cell count, replicate 1 = 6705; outcome = inactive

The listing, from the first entry:
tsg (GeneID 32160) #1 — infection score, replicate 1 = 1.6; cell count, replicate 1 = 6013; outcome = inactive
tsg (GeneID 32160) #2 — infection score, replicate 1 = 1.1; cell count, replicate 1 = 6705; outcome = inactive
TkR86C (GeneID 41286) — infection score, replicate 1 = 1.44; cell count, replicate 1 = 6256; outcome = inactive
nanos (GeneID 42297) #1 — infection score, replicate 1 = 1.93; cell count, replicate 1 = 6534; outcome = inactive
nanos (GeneID 42297) #2 — infection score, replicate 1 = 1.08; cell count, replicate 1 = 6392; outcome = inactive
CG31924 (GeneID 319030) — infection score, replicate 1 = 1.93; cell count, replicate 1 = 6433; outcome = inactive
lectin-21Cb (GeneID 33242) — infection score, replicate 1 = 2.42; cell count, replicate 1 = 6316; outcome = inactive
bnb (GeneID 32872) #1 — infection score, replicate 1 = 0.95; cell count, replicate 1 = 6708; outcome = inactive
bnb (GeneID 32872) #2 — infection score, replicate 1 = 3.92; cell count, replicate 1 = 6551; outcome = inactive
pdm2 (GeneID 34673) #1 — infection score, replicate 1 = 8.65; cell count, replicate 1 = 5087; outcome = inactive
pdm2 (GeneID 34673) #2 — cell count, replicate 1 = 652; outcome = inactive
DAT (GeneID 36849) — infection score, replicate 1 = 26.5; cell count, replicate 1 = 6491; outcome = inactive
